From paper PMC8406809 (Antimicrobial Agents and Chemotherapy, 2021)

System: original-SARS2
Format: cell-based, SARS-CoV-2

interferon alpha 2b
antiviral effect (virus-positive cells normalized to nontreated controls): concentration-dependent antiviral effect
